Assay results: US9512175B2, “Macrocyclic inhibitors of flaviviridae viruses” (Gilead Sciences, Inc., priority 2012, dated 2016)

Test system: HCV replicon (Replicon 1a)
Assay: anti-HCV activity in Huh-7 cell line harboring a HCV replicon (Replicon 1a)
Type: cell-based
Details: human hepatoma Huh-7 HCV replicon cells, 3 days, luciferase readout

Row | SMILES | Replicon 1a % inhibition at 1 μM [%]
1 | CC(C)[C@@H]1NC(=O)C(C)(C(C)(C)O)/C=C/c2ccc3ccc(nc3c2)[C@@H](C)OC(=O)[C@@H]2CCCN(N2)C(=O)[C@H](C)NC1=O (single isomer, unassigned) | 100
2 | COCC1NC(=O)[C@H](C(C)C)NC(=O)C(C)(C)/C=C/c2ccc3ccc(nc3c2)[C@@H](C)OC(=O)[C@@H]2CCCN(N2)C1=O (single isomer, unassigned) | 35
3 | CC(C)[C@@H]1NC(=O)C2(/C=C/c3ccc4ccc(nc4c3)[C@@H](C)OC(=O)[C@@H]3CCCN(N3)C(=O)[C@H](C)NC1=O)CCOC(C)(C)C2 (stereo partly drawn) [Compound 123] | 100
